In PMC3983855, “Identification and enzymatic characterization of acid phosphatase from Burkholderia gladioli” (BMC Research Notes, 2014):

System: membrane-bound acid phosphatase (MBAcP)
Assay: PNPPase inhibition, residual activity
Format: biochemical, Burkholderia gladioli
Conditions: 1 mM PNPP, 50 mM acetate pH 6.0, 37°C, membrane fraction

**Q.** Which Residual activity (10000 µM) does the source give for `O=P(O)(O)O` [phosphate] here?
**A.** The Residual activity was 38%.

**Q.** `O=[As](O)(O)O` [arsenate] was tested. Which Residual activity (1000 µM) did it give?
**A.** Its Residual activity is 14%.

**Q.** For `[O]=[V]([OH])([OH])[OH]` [vanadate], which Residual activity (500 µM) is on record?
**A.** The Residual activity was 6%.
